Values from PubChem BioAssay AID1259414 (Drosophila RNAi Screening Center, 2018).

Aim: 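Host factors increasing or decreasing Wolbachia levels in cultured fly cells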 (primary screen)
Cells: Drosophila JW18 cells infected with Wolbachia
Reagent: long dsRNA against Drosophila genes, 0.25 µg dsRNA per well of a 384-well plate
Duration: 5 days
Treatment: cells persistently infected with Wolbachia before knock-down; no added drug
Read-out: 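Automated imaging of bacterial rRNA staining divided by host cell count, reported as plate-normalised robust z-score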
Scale: Wolbachia per cell robust z: higher = more Wolbachia per host cell than the plate typical
Rule for the call: 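Hit when robust z is 1.5 or more, or -1.5 or less, in at least two of three replicates; excludes dsRNAs with several or no targets, genes not expressed in JW18 and well A1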
The deposit covers about 24,000 reagents; below is a random part of those with a known target gene and a result. Of all reagents, about 1,210 (5%) were called active. 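Inactive calls also include excluded dsRNAs with several or no targets, genes unexpressed in JW18, and well A1, regardless of score.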 Names joined by + are all predicted targets of the reagent. Reagent sequences are not shown.

Wolbachia per cell robust z, rep 1 | Wolbachia per cell robust z, rep 2 | Wolbachia per cell robust z, rep 3 | Outcome | Gene | dsRNA
0.573 | -7.1 | 0.683 | inactive | NELF-B | DRSC17734
2.27 | 0.65 | 1.71 | active | NELF-B | DRSC26242
-0.306 | 0.0762 | -0.76 | inactive | RhoGEF64C (Rho guanine nucleotide exchange factor at 64C) | DRSC08318
0.887 | -0.224 | 0.146 | inactive | RhoGEF64C (Rho guanine nucleotide exchange factor at 64C) | DRSC08319
0.546 | 0.176 | 0.301 | inactive | RhoGEF64C (Rho guanine nucleotide exchange factor at 64C) | DRSC25939
1.18 | 0.883 | -2.76 | inactive | CG10959 | DRSC17769
0.076 | 0.996 | 0.0199 | inactive | CG10959 | DRSC29120
-2.69 | -0.84 | -0.123 | inactive | SCAP (SREBP cleavage activating protein) | DRSC04869
-2.96 | -0.979 | -0.731 | inactive | SCAP (SREBP cleavage activating protein) | DRSC04907
-0.458 | 1.54 | -1.57 | inactive | CG10555 | DRSC23202
0.117 | 0.343 | 1.17 | inactive | CG10555 | DRSC27738
0.857 | 0.414 | 0.891 | inactive | CG4854 | DRSC15663
1.45 | 0.452 | 0.191 | inactive | CG4854 | DRSC27454
-0.163 | -0.294 | 0.0775 | inactive | CG1902 | DRSC06798
-3.12 | -1.48 | -0.233 | inactive | Obp57c + Obp57b | DRSC21914
-0.0326 | -0.0253 | 0.33 | inactive | CG9171 | DRSC03152
0.00486 | 0.0772 | -1.38 | inactive | CG9171 | DRSC21813
0.519 | -0.92 | 0.801 | inactive | CG9171 | DRSC24830
-0.181 | -1.59 | 0.224 | inactive | CG18635 | DRSC06780
0.0472 | -0.832 | 0.316 | inactive | CG18635 | DRSC25971
-0.502 | 0.965 | -0.565 | inactive | Cpr76Ba (Cuticular protein 76Ba) | DRSC11060
0.885 | -0.175 | -0.0135 | inactive | Cpr76Ba (Cuticular protein 76Ba) | DRSC27858
-0.986 | -0.534 | 0.4 | inactive | CG2818 | DRSC00540
1.08 | -0.711 | 0.292 | inactive | CG33655 | DRSC38896
-2.15 | -0.0694 | 0.65 | inactive | CG10183 | DRSC14203
-0.731 | -0.412 | -0.908 | inactive | CG10183 | DRSC25343
0.388 | 0.231 | -1.75 | inactive | GNBP3 (Gram-negative bacteria binding protein 3) | DRSC11170
0.386 | 0.279 | -3.94 | inactive | CG8176 | DRSC16394
-4.16 | -0.639 | -0.413 | inactive | CarT (Carcinine transporter) | DRSC03196
0.4 | 0.83 | 0.925 | inactive | CarT (Carcinine transporter) | DRSC27070
0.675 | -0.383 | -4.57 | inactive | CG11529 | DRSC09839
0.976 | -1.16 | -0.496 | inactive | miple1 (midkine and pleiotrophin 1) | DRSC08722
0.187 | -0.643 | -0.405 | inactive | CG31528 | DRSC12003
-0.368 | -1.19 | -0.829 | inactive | Vha16-3 (Vacuolar H[+] ATPase 16kD subunit 3) | DRSC10872
-0.515 | -2.03 | -0.244 | inactive | Vha16-3 (Vacuolar H[+] ATPase 16kD subunit 3) | DRSC25513
-0.224 | -4.08 | -0.321 | inactive | pcm (pacman) | DRSC20361
-0.959 | 0.997 | 0.964 | inactive | cal1 (chromosome alignment defect 1) | DRSC15725
1.76 | 0.388 | 0.961 | inactive | MED31 (Mediator complex subunit 31) | DRSC23432
-3.39 | -0.345 | -2.84 | active | CG6878 | DRSC10737
-0.0854 | -0.942 | 1.02 | inactive | CG9518 | DRSC20194
0.0595 | -1.57 | -0.534 | inactive | CG9518 | DRSC27096
0.134 | -1.71 | 0.677 | inactive | Obp99c (Odorant-binding protein 99c) | DRSC16262
0.839 | -0.174 | 0.0142 | inactive | CG15673 | DRSC04263
0.464 | -1.05 | -1.71 | inactive | LeuRS (Leucyl-tRNA synthetase) | DRSC00581
-0.902 | -0.767 | 0.424 | inactive | Ugt302C1 (UDP-glycosyltransferase family 302 member C1) | DRSC15353
-1.15 | -0.829 | -1.43 | inactive | Ugt302C1 (UDP-glycosyltransferase family 302 member C1) | DRSC24517
-4.92 | -0.202 | 0.108 | inactive | CG34409 | DRSC14577
0.647 | 0.892 | -0.235 | inactive | CG34409 | DRSC21667
0.0783 | 1.28 | -2.14 | inactive | conv (convoluted) | DRSC07213
1.05 | 1.03 | 9.1 | inactive | RpS28b (Ribosomal protein S28b) | DRSC18258
1.96 | -4.65 | 2.36 | active | RpS28b (Ribosomal protein S28b) | DRSC29909
-0.37 | 1.04 | -0.853 | inactive | CG18265 | DRSC10310
0.474 | -3.15 | 0.103 | inactive | CG14316 | DRSC14795
0.389 | 0.0334 | -0.915 | inactive | mRpL15 (mitochondrial ribosomal protein L15) | DRSC11771
0.556 | 0.282 | -0.223 | inactive | mRpL15 (mitochondrial ribosomal protein L15) | DRSC24402
3.01 | -0.392 | -0.957 | inactive | CG5003 | DRSC15694
1.22 | 0.27 | -0.117 | inactive | CG5003 | DRSC26689
-1.36 | -0.695 | -1.43 | inactive | Ythdc1 (YTH domain containing 1) | DRSC08141
-1.26 | -0.603 | -3.21 | inactive | CG9945 | DRSC07347
-0.306 | 0.464 | -0.713 | inactive | CG9945 | DRSC28885
-0.465 | -4.54 | -0.977 | inactive | AttC (Attacin-C) | DRSC06886
-0.676 | 0.572 | -1.05 | inactive | AttC (Attacin-C) | DRSC26453
-1.14 | -7.88 | -0.697 | inactive | Sar1 (Secretion-associated Ras-related 1) | DRSC17049
0.243 | 0.258 | 0.707 | inactive | Sar1 (Secretion-associated Ras-related 1) | DRSC22115
1.5 | 5.56 | 5.07 | active | Sar1 (Secretion-associated Ras-related 1) | DRSC24141
0.566 | 0.11 | -0.392 | inactive | CG8119 + asRNA:CR43299 | DRSC20083
0.888 | -1.69 | -2.18 | inactive | lectin-24A | DRSC00604
1.45 | 1.31 | 1.56 | inactive | Gcn5 (Gcn5 acetyltransferase) | DRSC11248
1.58 | 1.07 | 1.9 | active | Gcn5 (Gcn5 acetyltransferase) | DRSC26932

Targets above whose gene name starts with O or o:
Wolbachia per cell robust z, rep 1 | Wolbachia per cell robust z, rep 2 | Wolbachia per cell robust z, rep 3 | Outcome | Gene | dsRNA
-3.12 | -1.48 | -0.233 | inactive | Obp57c + Obp57b | DRSC21914
0.134 | -1.71 | 0.677 | inactive | Obp99c (Odorant-binding protein 99c) | DRSC16262
